# Reference: article PMC13499021, “Cellular Assays for Dynamic Quantification of Deubiquitinase Activity and Inhibition” (Journal of molecular biology, 2023)
# System: PL^pro-BL2
# Assay: Two-color flow cytometry DUB activity assay, PLpro-BL2 chimera (BL2 loop of MERS)
# Conditions: 5 μM GRL0617, Figure 2C
compound,measurement,value
Cc1ccc(N)cc1C(=O)N[C@H](C)c1cccc2ccccc12,Percent inhibition of DUB activity,< 2%
